# Library screen at single concentrations

Measurements from “University of Dundee, Small-Polar-MMV Screening Library” (2021), ChEMBL document CHEMBL3988442.

Mtb glucose medium: 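Phenotypic screen: M. tuberculosis growth, glucose 7H9 medium, 3 days; the read-out is not stated. Tested at 500 µM. Higher reads as more growth inhibition (inferred: compounds with an IC50 in retests scored well above the rest). Of about 18,000 compounds tested this way, about 1,400 (7.9%) reached 50% or more in at least one test.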
Mtb cholesterol medium: 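Growth of Mycobacterium tuberculosis over 4 days (cholesterol / DPPC medium with tyloxapol); the read-out is not stated. Tested at 500 µM. Higher reads as more growth inhibition (inferred: compounds with an IC50 in retests scored well above the rest). About 18,000 compounds were tested under these conditions; 5% (about 900) showed 50% or more at least once.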

Each number is a percent effect as filed. The controls that fix the scale are not given in the record; negative values are as filed. Many other results are left out here, so strong results are more common than in the screen. A dash means the value is not listed here; it may have been measured.

SMILES,Mtb glucose medium,Mtb cholesterol medium
COCc1noc(CN2CCNCC2)n1,-,5.611
CCc1ncc(C(=O)N2CCN(c3nccs3)CC2)s1,65.73,-
NCc1ccc2c(c1)CCS2(=O)=O,-,1.334
CN(C)c1ccc(C(=O)NCC2CCCO2)cc1 (centres undefined),32.03,-
O=C(NCCN1CCCC1)c1csc(-c2ccco2)n1,66.08,39.45
CNC(=O)C1CCCN1Cc1cccc(C(=O)OC)c1 (centres undefined),20.66,-
COC1(CO)CCOC1 (centres undefined),9.944,-
CNC(=O)CCC1CCCCN1 (centres undefined),-2.327,-
CN(Cc1ccco1)C(=O)CCc1ccc(C#N)cc1,103.6,95.38
CCC(N)(CC)CNS(=O)(=O)c1cccc2nonc12,-21.04,-
Cc1cc(C(=O)NCCNc2ccccc2)[nH]n1,-,-9.333
CC(OCCCN)c1ccccc1 (centres undefined),-,17.13
COc1ccc2c(c1)C(C)(O)C(=O)N2 (centres undefined),-2.427,-
CC(C)N(CCOc1cccc(F)c1)CC(N)=O,-,50.26
O=C(NCCn1cncn1)[C@@H](O)Cc1ccccc1,12.27,-
CN(C)S(=O)(=O)N1CCCC1c1ccsc1 (centres undefined),51.95,32.64
CC(=O)NC(CC(=O)Nc1ccccn1)c1cccs1 (centres undefined),3.223,-
Cc1cc(NC(=O)Nc2cnn(C)c2)n(C)n1,-,-5.885
CC1Cc2ccccc2N1C(=O)c1ccccn1 (centres undefined),54.56,-
O=C1CCN(S(=O)(=O)N2CCCCC2)CCN1,-,3.139
Nc1nnc(SCCC(=O)Nc2ccc(Cl)cn2)s1,-,3.798
COc1cccc(CNCCNc2cccc(C)n2)c1,70.64,78.11
c1c[nH]c(C2CCNCC2)n1,-2.624,-
COc1ccc(CNC(=O)c2cnccn2)cc1OC,46.13,-
Cc1cc(C(=O)Nc2ccc(C(N)=O)cc2)no1,-,-13.98
COc1ccc(C)cc1CCN,58.23,-
CN(C)C(=O)c1cc(-c2ccncc2)on1,1.336,-5.083
CCC(CO)(CO)NC(=O)c1csc(C(C)C)n1,18.59,-
CN1C(=O)C[C@@H](C(N)=O)[C@@H]1c1cccc(Cl)c1,-0.8025,-
CC(CCS(C)(=O)=O)NC(=O)N1CCC=C(Br)C1 (centres undefined),9.065,-
CNC(=O)c1cccc(NCc2ccc(C#N)s2)n1,68.75,53.18
O=C1CCCN1Cc1cccc(C(=O)N2CCC2)c1,-8.203,-
O=C(NCCN1CCC(O)CC1)c1cncc(Cl)c1,-,-6.08
CC(=O)Nc1cnn(CC2CCCO2)c1 (centres undefined),-,-15.69
CC(=O)c1ccc(Cl)c(Cl)c1OCC(=O)N(C)C,15.11,-
CCCNC(=O)CC1Sc2ccccc2NC1=O (centres undefined),-11.06,-14.68
COc1cc(F)c(NC(=O)N2CCC(O)CC2)cc1F,-2.818,-
CCc1nn(C)c(CC)c1S(=O)(=O)N1CCCC1CN (centres undefined),24.52,-
COCCCNC(=O)c1ccc(Cn2cncn2)cc1,16.83,-
Cc1ncc(CSC2CCN(C)C2=O)s1 (centres undefined),-4.693,-
CC(CO)CNC(=O)c1cnc(OC(C)C)c(Cl)c1 (centres undefined),38.84,33.52
O=C(NCc1nc2c(s1)CCCC2)C1CCOC1 (centres undefined),27.52,-
CC(C(=O)Nc1sccc1C(N)=O)N1CCCC1 (centres undefined),18.74,-
CS(=O)(=O)NCCOc1nc(-c2ccccc2Cl)no1,-,4.757
CNC(=O)c1cccc(CN)n1,7.094,-2.139
O=C(Cc1ccc(F)cc1)NCCCn1cccn1,33.75,-
CCN(CCN1CCCCCC1)C(=O)c1cnc[nH]1,-11.9,-
CCCNC(=O)c1ccc2c(c1)NC(=O)C(C)S2 (centres undefined),60.43,-
Cc1cc(O)nc(C2CC2)n1,-,0.2558
COc1ccccc1C(=O)NCC(=O)NCC(F)(F)F,-,-4.611
N[C@@H]1C[C@@H](N2CCOCC2)C12CCC2,-,1.654
O=C(CCNC(=O)c1ccccc1F)Nc1nccs1,-15.58,-
CC(C)(C)C(=O)CCN1CCCCC1,100.1,90.86
CNc1ncccc1C(=O)NCCS(=O)(=O)N(C)C,-,2.063
CC(=O)Nc1ccccc1CN(C)CC(C)O (centres undefined),8.398,-
CC[S+]([O-])c1ccccc1C(=O)Nc1ccncc1 (centres undefined),13.15,-
CN(C)c1nc(CS(=O)(=O)c2cccc(F)c2)ns1,4.645,-
Cc1ncc(CN(C)CC(O)COCc2ccco2)s1 (centres undefined),44.35,52.81
Cc1noc(C(C)N2CCN(C(C)C)CC2)n1 (centres undefined),1.301,-
CCNC(=O)CNc1nccc(OC)n1,0.8061,0.546
Cc1nnc(SCC(=O)NCC2CC2)s1,19.42,-
O=C(NC1CC1)c1snnc1-c1ccccc1,29.86,-
Cc1ccc(OC(C)CN)cc1 (centres undefined),86.47,94.8
CCN(CC)C(CNC1=NCCN1)c1ccco1 (centres undefined),15.35,-
CCN(CC(=O)NCc1ccccn1)CC1CCOC1 (centres undefined),-0.6344,-
CO[C@H]1CNCC1NC(=O)c1cc(C(C)C)nn1C (some centres undefined),11.55,-
COCCSC(C(N)=O)c1ccccc1 (centres undefined),13.73,-
Cc1ccnc(SCC(N)=O)c1C#N,-3.032,-
NC(=O)C(c1ccccc1)N1CCC2(CC1)OCCO2 (centres undefined),-,13.82

Repeated from the top, 7 entries:

SMILES	Mtb glucose medium	Mtb cholesterol medium
COCc1noc(CN2CCNCC2)n1	-	5.611
CCc1ncc(C(=O)N2CCN(c3nccs3)CC2)s1	65.73	-
NCc1ccc2c(c1)CCS2(=O)=O	-	1.334
CN(C)c1ccc(C(=O)NCC2CCCO2)cc1 (centres undefined)	32.03	-
O=C(NCCN1CCCC1)c1csc(-c2ccco2)n1	66.08	39.45
CNC(=O)C1CCCN1Cc1cccc(C(=O)OC)c1 (centres undefined)	20.66	-
COC1(CO)CCOC1 (centres undefined)	9.944	-